{"source": "PubChem BioAssay AID504761 (Drosophila RNAi Screening Center, 2011)", "purpose": "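Insect host genes that dengue virus relies on to spread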 (primary screen)", "system": "D.Mel-2 cells from Drosophila", "reagents": "long dsRNA against Drosophila genes", "conditions": "infection with dengue virus type 2; dose and infection time not stated", "measurement": "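Cells stained for dengue envelope protein and imaged; percent of infected cells per well on duplicate plates, ranked by infection, with stained nuclei counted for cell number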", "reading the numbers": "infection score: higher = more virus-infected cells", "call rule": "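Very low infection ranking in both replicate wells (chance probability at most 0.065), then a retest showing infection dropped 1.5-fold or more at p below 0.05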", "meaning of the calls": "active = confirmed: knock-down lowers infection; inactive = not picked or not confirmed", "note": "The screen tested about 22,000 reagents; below is an unselected part of those with a known target gene and a result. Of all reagents, 116 (0.52%) got an active call. 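Calls depend on retest data that are not deposited; infection was ranked per plate without normalising between plates; the unit of the infection score is not given.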 A plus sign joins genes that one reagent is predicted to hit. Further read-outs or replicates are left out here. Not stated in the record: the amount of reagent, the time to read-out."}
The first 2 records as a preview:
{"predicted target": "AOX2 (GeneID 41895)", "dsRNA": "DRSC15338", "infection score, replicate 1": 3.5, "Outcome": "inactive"}
{"predicted target": "CG34164 + RpL7-like", "dsRNA": "DRSC28314", "infection score, replicate 1": 26.3, "Outcome": "inactive"}

The list itself, from the start:
{"predicted target": "AOX2 (GeneID 41895)", "dsRNA": "DRSC15338", "infection score, replicate 1": 3.5, "Outcome": "inactive"}
{"predicted target": "CG34164 + RpL7-like", "dsRNA": "DRSC28314", "infection score, replicate 1": 26.3, "Outcome": "inactive"}
{"predicted target": "Agxt (GeneID 31587)", "dsRNA": "DRSC18718", "infection score, replicate 1": 7.11, "Outcome": "inactive"}
{"predicted target": "Agxt (GeneID 31587)", "dsRNA": "DRSC26115", "infection score, replicate 1": 4.85, "Outcome": "inactive"}
{"predicted target": "mRpL33 (GeneID 50381)", "dsRNA": "DRSC18319", "infection score, replicate 1": 19.8, "Outcome": "inactive"}
{"predicted target": "CG11134 (GeneID 32334)", "dsRNA": "DRSC19384", "infection score, replicate 1": 18, "Outcome": "inactive"}
{"predicted target": "CG32182 (GeneID 317898)", "dsRNA": "DRSC09508", "infection score, replicate 1": 0.18, "Outcome": "active"}
{"predicted target": "CG32182 (GeneID 317898)", "dsRNA": "DRSC24583", "infection score, replicate 1": 4.82, "Outcome": "inactive"}
{"predicted target": "CG8916 (GeneID 32553)", "dsRNA": "DRSC20120", "infection score, replicate 1": 2.86, "Outcome": "inactive"}
{"predicted target": "CG9498 (GeneID 33885)", "dsRNA": "DRSC03235", "infection score, replicate 1": 6.11, "Outcome": "inactive"}
{"predicted target": "PRL-1 (GeneID 34952)", "dsRNA": "DRSC03393", "infection score, replicate 1": 8.38, "Outcome": "inactive"}
{"predicted target": "PRL-1 (GeneID 34952)", "dsRNA": "DRSC27332", "infection score, replicate 1": 7.59, "Outcome": "inactive"}
{"predicted target": "CG31064 (GeneID 43277)", "dsRNA": "DRSC14756", "infection score, replicate 1": 1.62, "Outcome": "inactive"}
{"predicted target": "CG31064 (GeneID 43277)", "dsRNA": "DRSC15941", "infection score, replicate 1": 0.38, "Outcome": "inactive"}
{"predicted target": "CG31064 (GeneID 43277)", "dsRNA": "DRSC15942", "infection score, replicate 1": 2.96, "Outcome": "inactive"}
{"predicted target": "CG31064 (GeneID 43277)", "dsRNA": "DRSC15943", "infection score, replicate 1": 3.98, "Outcome": "inactive"}
